Reference: PubChem BioAssay AID624099 (ICCB-Longwood, 2012)
Purpose: 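Knock-downs relieving repression by E2 of an HPV18 LCR luciferase reporter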 (primary screen). System: human C33A cervical carcinoma cells (HPV-negative) stably expressing BPV1 E2 and an HPV18 LCR luciferase reporter. Reagents: siRNA pool against human genes, 40 nM. Duration: 72 h. Detection: 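HPV18 LCR reporter light per well, converted to plate-wise z-scores that exclude control wells, and averaged over triplicate plates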. Direction: mean z-score and z-score: higher = stronger reporter signal, weaker E2 silencing. Rule for the call: 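Hit if mean z-score reaches 2 and two or more of three replicate z-scores also reach 2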.
This is a random part of about 21,000 reagents tested. Of all reagents, 497 (2.4%) are marked active. 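Higher z means weaker E2 silencing; only reporter increases were scored, and knock-downs that hurt cell survival may mask genuine repressor factors.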 Reagents against one gene are numbered here.

target	pool no.	mean z-score	z-score, replicate A	z-score, replicate B	z-score, replicate C	Outcome
TET3 (GeneID 200424)	1	1.29	1.25	1.49	1.12	inactive
CYP2W1 (GeneID 54905)	1	0.27	0.18	0.22	0.42	inactive
CDC50B (GeneID 161291)	1	-0.43	-0.3	-0.37	-0.62	inactive
TCEAL7 (GeneID 56849)	1	-0.03	0.05	-0.2	0.05	inactive
CDS1 (GeneID 1040)	1	0.35	0.03	0.68	0.35	inactive
IL17F (GeneID 112744)	1	-0.13	0.18	-0.41	-0.16	inactive
LOC389070 (retired record) (GeneID 389070)	1	-1.38	-1.81	-1.36	-0.96	inactive
BHLHE22 (GeneID 27319)	1	0.62	0.06	0.83	0.96	inactive
SH3GL2 (GeneID 6456)	1	-0.07	-0.12	-0.03	-0.07	inactive
PRKCA (GeneID 5578)	1	1	0.67	1.06	1.28	inactive
SULT1C4 (GeneID 27233)	1	0.45	0.21	0.95	0.2	inactive
LOC388655 (retired record) (GeneID 388655)	1	-0.65	-1.04	-0.5	-0.4	inactive
SMURF2 (GeneID 64750)	1	-1.39	-1.17	-1.52	-1.47	inactive

Next part (2 carried over from the part before).
target	pool no.	mean z-score	z-score, replicate A	z-score, replicate B	z-score, replicate C	Outcome
LOC388655 (retired record) (GeneID 388655)	1	-0.65	-1.04	-0.5	-0.4	inactive
SMURF2 (GeneID 64750)	1	-1.39	-1.17	-1.52	-1.47	inactive
ATP1A4 (GeneID 480)	1	0.54	0.41	0.54	0.66	inactive
P2RX7 (GeneID 5027)	1	1.87	2	1.83	1.79	inactive
PTHLH (GeneID 5744)	1	0.01	0.06	-0.25	0.22	inactive
USP17L8 (GeneID 392188)	1	-2	-1.9	-2.05	-2.05	inactive
H2BC21 (GeneID 8349)	1	0.72	1.29	0.69	0.17	inactive
GPR157 (GeneID 80045)	1	-0.73	-0.82	-0.47	-0.89	inactive
GPR157 (GeneID 80045)	2	-0.98	-1.22	-0.71	-1.01	inactive
ST3GAL4 (GeneID 6484)	1	0.69	0.47	0.69	0.92	inactive
PRB1 (GeneID 5542)	1	-0.61	-0.71	-0.53	-0.6	inactive
FAM50B (GeneID 26240)	1	-0.87	-1.12	-0.89	-0.61	inactive
